Experimental data published in publication PMC8008340.

Molecular target: WT RBD (Wuhan SARS-CoV-2 RBD) (SARS-CoV-2) (UniProt P0DTC2)
Assay: BLI

Substance	Kd
AZD8895	2.18 nM
AZD1061	5.13 nM
